Data reported in article PMC11857287, “Investigation of the Structure and Functional Activity of the YqeK Protein in Streptococcus pyogenes with High Efficiency in Hydrolyzing Ap4A” (Microorganisms, 2025).

Test system: Nc1ncnc2c1ncn2[C@@H]1O[C@H](COP(=O)(O)OP(=O)(O)OP(=O)(O)OP(=O)(O)OC[C@H]2O[C@@H](n3cnc4c(N)ncnc43)[C@H](O)[C@@H]2O)[C@@H](O)[C@H]1O
Experiment: purified protein
Conditions: Mg2+-dependent, heading states optimal conditions (optimum pH 7.0, 45 °C), 0.1 mg/mL enzyme

Row | Substance | Km [µM]
1 | Sp-yqeK (Streptococcus pyogenes; F180A) | 1987 ± 651.3617
2 | Sp-yqeK (Streptococcus pyogenes; L172A) | 1009 ± 346.4237
3 | Sp-yqeK (Streptococcus pyogenes; T183A) | 1023.7566 ± 328.1
